# Construct, isoform or probe ends are uncertain for at least one entry.
# What was measured:
# [1] = target: PhoB (phosphorylated) (UniProt P23620); experiment: EMSA; conditions: acetylphosphate, Mg2+, 12 mM Tris-HCl pH 7, 23.6 mM NaCl, 0.12 M Mg acetate, 0.24 mM EDTA, 0.24 mM DTT, 1.2% glycerol, 2.3 mM acetylphosphate, 20 ug/ml poly(dI-dC), recombinant protein, protein details: His-tag
# [2] = test system: PhoB (phosphorylated) + sigma VreI; experiment: EMSA; conditions: VreI added to preformed PhoB-DNA complex II; 12 mM Tris-HCl pH 7, 23.6 mM NaCl, 0.12 M Mg acetate, 0.24 mM EDTA, 0.24 mM DTT, 1.2% glycerol, 2.3 mM acetylphosphate, 20 ug/ml poly(dI-dC); recombinant protein; protein details: His-tag,His-tag; label: 5' fluorescein on strand 1
# [3] = label: 5' fluorescein on strand 1
Sequence,"binding result [1, 3]","binding result ([1]; two complexes (I and II), label: 5' 32P)",binding result [2]
ACCGCAGGTACCGTCACACCACAGTCACACAGTGCCATCAGGATGTCCCTCCTGGGTGATGGCCATCTGG (double strand) [PvreA],binds,–,–
CGCTCCGCTCCATGAACTTTCCATGACAAGTCTTCGGCCCACCCTCCGCCAGGCCGTCTACCAGTAA (double strand) [PpdtA (32P)],–,binds,–
CGCTCCGCTCCATGAACTTTCCATGACAAGTCTTCGGCCCACCCTCCGCCAGGCCGTCTACCAGTAA (double strand) [PpdtA (fluorescein)],binds,–,binds
CGGCCGGTCGCATGAAGTTTTCATGACAAAAGTTCGGTGGTGCGGCGGGGTTGCCGTCAAACAGGTGT (double strand) [PphdA],binds,–,–

# Reference: article PMC4971064
